Compound potency records, mixed from different reports. Data source: NIAID ChemDB in PubChem.

All rows: growth or infection tests; species: Poliovirus; measure: inhibition

Lines come from different laboratories, so protocols vary.

structure	strain	tested at	cells	result
COc1cc(C(=O)Oc2c(-c3ccc(Cl)c(Cl)c3)oc3ccccc3c2=O)ccc1OC(C)=O	TYPE 2	1.07 µM	HeLa	inactive
CCC(=O)C(CCCCCCOc1ccc(OC)cc1Cl)C(=O)CC	MEF (TYPE 2)	1.08 µM	HeLa	100%
CC12CCC3C(C[C@H](OS(=O)(=O)O)[C@H]4C[C@@H](OS(=O)(=O)O)CCC34C)C1CCC2C(=O)CO	TYPE 3	80 µg/mL	VERO	15.7%
Clc1ccc2c(c1)C=C(c1ccccc1)CO2	IB (TYPE 2)	10 µM	HEP-2	85%
O=C(/C=C/c1ccc(O)c(O)c1)Oc1c(-c2ccc(Cl)cc2)oc2ccccc2c1=O	TYPE 2	6.25 µM	HeLa	12%
Clc1ccc(C2=Cc3cc(Cl)ccc3OC2)cc1	II (TYPE 2)	10 µM	HEP-2	10%
CC(C)CCC[C@@H](COS(=O)(=O)O)[C@H]1CC[C@H]2[C@@H]3CC[C@@H]4[C@H](O)[C@H](OS(=O)(=O)O)CC[C@]4(C)[C@H]3[C@@H](O)C[C@]12C	SABIN (TYPE 3)	40 µg/mL	VERO	33%
CC(=O)OC(C)c1ccc2c(c1)Sc1ccccc1O2	TYPE 3	2 µg/mL	BSC-1	100%
CC12CC[C@H](O)CC1=CCC1C2CCC2(C)C(C(=O)COS(=O)(=O)O)CCC12	TYPE 3	80 µg/mL	VERO	0%
Clc1ccc(C2CCc3ccccc3O2)c(Cl)c1	II (TYPE 2)	10 µM	HEP-2	15%
COc1cc(C(=O)Oc2c(-c3ccc(Cl)c(Cl)c3)oc3ccccc3c2=O)cc(OC)c1O	TYPE 2	1.56 µM	HeLa	15%
CC(C)=CCCC(CO)C1CCC2C3CC=C4C[C@H](O)[C@@H](O)CC4(C)C3CCC12C	TYPE 3	80 µg/mL	VERO	78.1%
Brc1ccc(C2=Cc3cc(Br)ccc3OC2)cc1	II (TYPE 2)	10 µM	HEP-2	10%
CC(O)c1ccc2c(c1)Sc1cc(C(C)O)ccc1O2	TYPE 3	10 µg/mL	BSC-1	47%
Clc1ccc2c(c1)C=C(c1ccc(Br)cc1)CO2	IA (TYPE 2)	10 µM	HEP-2	48%
C/C(=N\O)c1ccc2c(c1)Sc1ccccc1O2	TYPE 3	10 µg/mL	BSC-1	100%
CC(C)/C=C/[C@@H](COS(=O)(=O)O)[C@H]1CC[C@H]2[C@@H]3CC[C@@H]4[C@H](O)[C@H](OS(=O)(=O)O)CC[C@]4(C)[C@H]3[C@@H](O)C[C@]12C	SABIN (TYPE 3)	5 µg/mL	VERO	10%
CC(=O)c1ccc2c(c1)[S@@](=O)c1ccccc1O2	TYPE 3	0.4 µg/mL	BSC-1	20%
CC12CC[C@H](OS(=O)(=O)O)CC1=CCC1C2CCC2(C)C(C(=O)CO)CCC12	TYPE 3	80 µg/mL	VERO	1.4%
CC(OC(=O)Nc1ccc2ccccc2c1)c1ccc2c(c1)Sc1ccccc1O2	TYPE 3	10 µg/mL	BSC-1	41%
COc1cc(/C=C/C(=O)Oc2c(-c3ccc(Cl)c(Cl)c3)oc3ccccc3c2=O)ccc1OC(C)=O	TYPE 2	0.39 µM	HeLa	10%
CC(O)c1ccc2c(c1)S(=O)c1ccccc1O2	TYPE 3	0.4 µg/mL	BSC-1	12%
COc1cc(/C=C/C(=O)Oc2c(-c3ccc(Cl)cc3)oc3ccccc3c2=O)ccc1O	TYPE 2	6.25 µM	HeLa	12%
c1ccc(C2COc3ccccc3C2)cc1	TYPE 2	10 µM	HEP-2	45%
CC(O)c1ccc2c(c1)Sc1ccccc1S2	TYPE 3	2 µg/mL	BSC-1	24%

2 of the rows above, restated:

{"structure": "CC(OC(=O)Nc1ccc2ccccc2c1)c1ccc2c(c1)Sc1ccccc1O2", "strain": "TYPE 3", "tested at": "10 µg/mL", "cells": "BSC-1", "result": "41%"}
{"structure": "COc1cc(C(=O)Oc2c(-c3ccc(Cl)c(Cl)c3)oc3ccccc3c2=O)ccc1OC(C)=O", "strain": "TYPE 2", "tested at": "1.07 µM", "cells": "HeLa", "result": "inactive"}

For "inactive" no cut-off is given. Inhibition is in % at the dose shown (toxicity tests: loss of growth or viability).